Anti-infective test results gathered from many reports (values: NIAID ChemDB through PubChem).

Shared fields: whole-cell or culture tests; organism: Poliovirus; cells: HeLa; measure: EC50

ECn is the concentration giving n% inhibition of infection, replication or growth. An empty or dashed field is not shown. Conditions beyond the fields shown may differ between rows. Two numbers with a dash give a range or band.

smiles	strain or isolate	value
O=C1c2ccccc2OCC1Cc1ccc(O)cc1	TYPE 2	>6.25 µM
C=C(N=CC)c1nc(-c2cccc(OC)c2)n(C2O[C@H](CO)[C@@H](O)[C@H](O)[C@H]2O)n1	TYPE 1	>400 µg/mL
Nc1ncnc2c1ncn2CCCC(O)CF	TYPE 1	>400 µg/mL
CC=NC(=N)c1nc(-c2cccc(OC)c2)n(COCCO)n1	TYPE 1	>10 µg/mL
O=c1c(Cc2ccccc2)coc2ccccc12	TYPE 2	>25 µM
COc1ccc(OCc2ccc(COc3c(Cl)cccc3Cl)cc2)c(Cl)c1	TYPE 2	0.08 µg/mL
Nc1ncnc2c1ncn2[C@@H]1C=C(CO)[C@@H](O)[C@H]1O	TYPE 1	≥40 µg/mL
Nc1nc2c(ncn2CC[C@H](O)CCO)c(=O)[nH]1	TYPE 1	>400 µg/mL
COc1cc2c(cc1OC)[C@@H]1C(N)CSCON1CC2	TYPE 1	1 µg/mL
C=CCc1nc(C)n2c(=O)[nH]c(NC(C)=O)nc12	TYPE 1	>400 µg/mL
C=C(N=CC)c1nc(-c2cccc(C)c2)n([C@@H]2O[C@H](CO)[C@@H](O)[C@H]2O)n1	TYPE 1	>200 µg/mL
Cc1nc(C(C)C)c2[nH]c(=S)[nH]c(=O)n12	TYPE 1	300 µg/mL
Nc1nc2c(ncn2[C@H]2CO[C@@H](CO)C2)c(=O)[nH]1	TYPE 1	>200 µg/mL
Nc1ccn([C@@H]2C[C@H](CO)[C@@H](O)[C@H]2O)c(=O)n1		>400 µg/mL
Nc1nc2c(ncn2CCCC(O)CF)c(=O)[nH]1	TYPE 1	>400 µg/mL
Nc1ncnc2c1ccn2[C@@H]1C[C@H](O)[C@@H](O)[C@H]1O	TYPE 1	400 µg/mL
CCC(=O)C(CCCCCCOc1ccc(OC)cc1Cl)C(=O)CC	MEF (TYPE 2)	0.07–0.14 µM
O=C(/C=C/c1ccc(O)c(O)c1)Oc1c(-c2ccc(Cl)c(Cl)c2)oc2ccccc2c1=O	TYPE 2	>6.25 µM
Nc1ncnc2c1ncn2CC[C@H](O)CCO	TYPE 1	>400 µg/mL
C=CCc1ncn2c(=O)[nH]c(NC(C)=O)nc12	TYPE 1	>400 µg/mL
N#Cc1cncc([C@H]2O[C@H](CO)[C@H](O)[C@@H]2O)c1		≥100 µg/mL
COc1cc(C(=O)Oc2c(-c3ccc(Cl)cc3)oc3ccccc3c2=O)cc(OC)c1OC(C)=O	TYPE 2	>1.56 µM
Cc1cn(CC[C@H](O)CCO)c(=O)[nH]c1=O	TYPE 1	>400 µg/mL
N#Cc1cc([N+](=O)[O-])ccc1Oc1ccc(Cl)c(Cl)c1	TYPE 2	≤0.6 µg/mL
O=C(/C=C/c1ccc(O)c(O)c1)Oc1c(-c2ccc(Cl)cc2)oc2ccccc2c1=O	TYPE 2	>6.25 µM
Nc1ncnc2c1ncn2C1CC(CO)[C@@H](O)[C@H]1O	TYPE 1	8 µg/mL
NC1=CC(N)=NS(=O)(=O)N1COCCO	TYPE 1	>400 µg/mL
NC(=O)c1cncc([C@H]2O[C@H](CO)[C@@H](O)[C@@H]2O)c1		≥100 µg/mL
Nc1ncnc2c1ncn2[C@H]1C[C@@H](CO)[C@H](O)[C@@H]1O	TYPE 1	>400 µg/mL
Cc1cccn2c(C3OCCS3)cnc12	TYPE 1	>1000 µM
C=C(N=CC)c1nc(-c2ccc(C)cc2)n(C2O[C@H](CO)[C@@H](O)[C@H](O)[C@H]2O)n1	TYPE 1	>200 µg/mL
CC1(c2ccc(Cl)c(Cl)c2)NC(=O)NC1=O		20 µg/mL
N#CC1=CN(COCCO)S(=O)(=O)N=C1N	TYPE 1	>400 µg/mL
CO[C@H](CO)[C@@H](O)CCn1cnc2c(=O)[nH]c(N)nc21	TYPE 1	>400 µg/mL
CCOC(=O)C1=CN(COCCO)S(=O)(=O)NC1=O	TYPE 1	>400 µg/mL
C=CC1=C[C@@H](n2cnc3c(N)ncnc32)[C@H](O)[C@@H]1O	TYPE 1	>400 µg/mL
NC(=O)c1cncc([C@H]2O[C@H](CO)[C@H](O)[C@@H]2O)c1		≥100 µg/mL
O=c1ccn([C@@H]2O[C@H](CO)[C@](O)(C(F)(F)F)[C@H]2O)c(=O)[nH]1	TYPE 1	>400 µg/mL
OC[C@H]1O[C@H](c2cncc(Br)c2)[C@@H](O)[C@@H]1O		≥100 µg/mL
CC(=O)c1c(-c2ccc(Cl)cc2)oc2ccccc2c1=O	TYPE 2	>25 µM
COCC1=C[C@@H](n2cnc3c(N)ncnc32)[C@H](O)[C@@H]1O	TYPE 1	>200 µg/mL
Cc1ccn2c(C3OCCO3)cnc2c1	TYPE 1	>1000 µM
NC(=O)c1cncc([C@@H]2O[C@H](CO)[C@@H](O)[C@@H]2O)c1		≥100 µg/mL
CC=NC(=N)c1nc(-c2cccc(C)c2)n(C/C=C/c2ccccc2)n1	TYPE 1	>10 µg/mL
CN=C(c1ccccc1)c1ccc2nc(N)n(S(=O)(=O)C(C)C)c2c1	Type 1/Mahoney	0.06 µg/mL
COc1cc(C(=O)Oc2c(-c3ccc(Cl)cc3)oc3ccccc3c2=O)ccc1O	TYPE 2	>6.25 µM
C=CCc1nc(C)n2c(=O)[nH]c(=S)[nH]c12	TYPE 1	>200 µg/mL
[N-]=[N+]=N[C@H]1[C@@H](F)[C@H](n2cnc3c(N)ncnc32)O[C@@H]1CO	TYPE 1	>200 µg/mL
CON1CCc2c([nH]c3ccccc23)[C@@H]1[C@@H](N)CSC	TYPE 1	>10 µg/mL
N#Cc1cncc([C@@H]2O[C@H](CO)[C@@H](O)[C@@H]2O)c1		≥100 µg/mL
O=C1C=CN(COCCO)S(=O)(=O)N1COCCO	TYPE 1	>400 µg/mL
O=C1/C(=C/c2ccc(Cl)cc2)COc2cc(Cl)cc(Cl)c21	TYPE 2	>6.25 µM
C[C@@]1(O)[C@@H](CO)O[C@@H](n2cnc3c(N)ncnc32)[C@@H]1O	TYPE 1	>40 µg/mL
COc1ccc(OCCCCCCn2ccnc2)c(Cl)c1	TYPE 2/MEF1	10.2 µM
CS(=O)(=O)c1ccc(Oc2ccc(C(=O)c3ccccc3)cc2)nc1	TYPE 2	>10 µg/mL
O=c1c(Cc2ccc(Cl)cc2)coc2ccccc12	TYPE 2	>25 µM
NC1CSCCN2CCc3c([nH]c4ccccc34)[C@H]12	TYPE 1	20 µg/mL
CC(=O)OCCOCN1C=CC(=O)NS1(=O)=O	TYPE 1	>400 µg/mL
O=c1c(Cc2ccc(Cl)cc2)coc2cc(Cl)cc(Cl)c12	TYPE 2	16.89 µM
OC[C@H]1O[C@@H](c2cncc(Br)c2)[C@@H](O)[C@H]1O		≥100 µg/mL
O=c1c(O)c(-c2ccc(Cl)c(Cl)c2)oc2ccccc12	TYPE 2	>6.25 µM
Nc1nc2c(ccn2[C@H]2CO[C@@H](CO)C2)c(=O)[nH]1	TYPE 1	>400 µg/mL
[N-]=[N+]=N[C@H]1[C@@H](F)[C@H](N2C=CC(N)NC2=O)O[C@@H]1CO	TYPE 1	>400 µg/mL
Cc1cccn2c(C3SCCS3)cnc12	TYPE 1	>1000 µM

Repeating the final 9 entries:

{"smiles": "O=c1c(Cc2ccc(Cl)cc2)coc2ccccc12", "strain or isolate": "TYPE 2", "value": ">25 µM"}
{"smiles": "NC1CSCCN2CCc3c([nH]c4ccccc34)[C@H]12", "strain or isolate": "TYPE 1", "value": "20 µg/mL"}
{"smiles": "CC(=O)OCCOCN1C=CC(=O)NS1(=O)=O", "strain or isolate": "TYPE 1", "value": ">400 µg/mL"}
{"smiles": "O=c1c(Cc2ccc(Cl)cc2)coc2cc(Cl)cc(Cl)c12", "strain or isolate": "TYPE 2", "value": "16.89 µM"}
{"smiles": "OC[C@H]1O[C@@H](c2cncc(Br)c2)[C@@H](O)[C@H]1O", "value": "≥100 µg/mL"}
{"smiles": "O=c1c(O)c(-c2ccc(Cl)c(Cl)c2)oc2ccccc12", "strain or isolate": "TYPE 2", "value": ">6.25 µM"}
{"smiles": "Nc1nc2c(ccn2[C@H]2CO[C@@H](CO)C2)c(=O)[nH]1", "strain or isolate": "TYPE 1", "value": ">400 µg/mL"}
{"smiles": "[N-]=[N+]=N[C@H]1[C@@H](F)[C@H](N2C=CC(N)NC2=O)O[C@@H]1CO", "strain or isolate": "TYPE 1", "value": ">400 µg/mL"}
{"smiles": "Cc1cccn2c(C3SCCS3)cnc12", "strain or isolate": "TYPE 1", "value": ">1000 µM"}